Test results as given in patent US20090068207A1, “Compositions Containing Beta 2-Glycoprotein I-Derived Peptides for the Prevention and/or Treatment of Vascular Disease” (Vascular Biogenics Ltd., priority 2005, published 2009).

Experiment: Body weight, plasma cholesterol and triglyceride after nasal administration (LDL-RD mice)
Type: in vivo
Settings: END, intranasal 10 μg/mouse every other day for 5 days, then Western diet, mean ± S.E

HSP-65: recombinant mycobacterial heat shock protein HSP 65
Weight: 26.8 ± 0.9 g
